According to publication PMC4888613, “Antifilarial activity of diterpenoids from Taxodium distichum” (Parasites & Vectors, 2016):

How the values were obtained:
[1] = tested on: Brugia malayi adult worms (AW); test: In vitro motility assay on adult female worms; format: cell-based; conditions: Selectivity Index CC50/IC50, adult worms
Description: (§1) Microfilariae and adult worms were harvested from p.c. of the M. unguiculatus harbouring approximately 5–6 month-old B. malayi infection. The parasites were washed thoroughly with HBSS (pH 7.2) containing antibiotics (penicillin: 100 U/ml; streptomycin: 100 μg/ml) and used for the present study.
(§2) Motility and 3-(4,5-dimethylthiazol-2-yl)-2,5 diphenyltetrazolium bromide (MTT; Sigma-Aldrich, USA) reduction assays that indicate viability of the parasites were used. Test samples and ivermectin (purity 95 %; Sigma-Aldrich, USA) were dissolved in dimethyl sulfoxide (DMSO; Sigma-Aldrich, USA); the final concentration of DMSO in the incubation medium Hanks Balanced Salt Solution (HBSS; Sigma-Aldrich, USA) containing 100 U/ml penicillin and 100 μg/ml streptomycin (Sigma-Aldrich, USA), was kept ≤ 0.1 %. Diethylcarbamazine-citrate (DEC-C; purity 100 %; Sigma-Aldrich, USA) solution was prepared in sterile distilled water. HBSS containing DMSO (≤ 0.1 %) alone was used as negative control.
(§3) In vitro efficacy of the test agents and reference drugs was assessed on mf (40–50 mf/100 μl/well) in a 96-well cell culture plate (Nunc, Denmark) and on adult female worms (1 worm/ml/well) in a 48-well plate (Nunc, Denmark). The assays were run in triplicates.
(§4) Motility assay using mf and adult worms was carried out as described elsewhere. Changes in parasite motility was assessed under a microscope and scored as: 0 = dead (100 %); 1-4 = loss of motility (1 = 75 %; 2 = 50 %; 3 = 25 %; and 4 = no loss of motility). The experiment was repeated twice.
(§5) IC50 and CC50 of the test agents were determined using the method described elsewhere. […] The experiments were repeated twice.
(§6) Data were transferred to a graphic program (MS Excel) and IC50 and CC50 were calculated by linear interpolation between the two concentrations above and below 50 % inhibition.

[2] = tested on: Brugia malayi microfilariae (Mf); test: In vitro motility assay on microfilariae; format: cell-based; conditions: Selectivity Index CC50/IC50, microfilariae
Description: as §1, §2, §3, §4, §5, §6

Structure (SMILES) | SI for AW in MA [1] | SI for Mf in MA [2]
C=C1CCC2C(C)(C)C(OC(C)=O)CC[C@@]2(C)C1CC/C(C)=C/C(=O)O (stereo partly drawn) [Compound K001, 3-Acetoxylabda-8(20),13-diene-15-oic acid] | 16.91 | 7.88
C=C1CCC2C(C)(C)CCC[C@@]2(C)C1CC/C(C)=C/C(=O)O (stereo partly drawn) [Compound K003, labda-8(20),13-diene-15-oic acid] | 2.42 | 9.69
CCN(CC)C(=O)N1CCN(C)CC1 [DEC-C, Diethylcarbamazine-citrate] | 28.57 | 30.27
